Results of unrelated studies side by side (data: NIAID ChemDB).

All rows: whole-cell or culture tests; organism: HIV-1; read by: cytopathic effect / MTT; read-out: EC50

ECn: concentration that inhibits the pathogen or its effect by n%. a–b is a range or a potency band. Blank or dashed fields: not listed here. Neighbouring rows are from separate reports.

smiles	conditions	strain	cell line	changes	value
C=C[C@@]1(C)CC[C@](C)(C(C)C)c2cc3c4c(c[nH]c4c21)C[C@@H](CO)NC(=O)[C@H](C(C)C)N3C	-	IIIB	MT-4	-	0.00006 µg/mL
C#CC1(CO)O[C@@H](n2cnc3c(N)ncnc32)[C@H](O)[C@@H]1O	-	LAI	MT-4	-	>400 µM
CCOCc1cn(Cc2ccncc2)c(Sc2ccccc2)c1C(C)C	-	IIIB	MT-4	-	7 µM
CCCCCCCCCCc1ccc2c(c1)N(C)[C@@H](C(C)C)C(=O)N[C@H](CO)C2	-	IIIB	MT-4	-	0.0063 µg/mL
NC(=O)OCc1cn(Cc2ccncc2)c(Sc2cc(Cl)cc(Cl)c2)c1C1CCC1	-	IIIB	MT-4	-	0.007 µM
C#C[C@]1(CO)O[C@@H](n2cc(I)c(=O)[nH]c2=O)C[C@@H]1O	-	LAI	MT-4	-	0.29 µM
Cc1cn([C@H]2C[C@H](N=[N+]=[N-])[C@@H](CO)O2)c(=O)[nH]c1=O	-	IIIB	MT-4	-	0.0059–0.017 µM
CC(C)(C)NC(=O)[C@@H]1C[C@@H]2CCCC[C@@H]2CN1C[C@@H](O)[C@H](Cc1ccccc1)NC(=O)[C@H](CC(N)=O)NC(=O)c1ccc2ccccc2n1	-	IIIB	MT-4	-	0.018 µM
CN1C/C(=C\c2ccc(O)c([N+](=O)[O-])c2)C(=O)/C(=C/c2ccc(O)c([N+](=O)[O-])c2)C1	-	-	MT-4	-	>25 µM
O=S(=O)(O)OC1C(OS(=O)(=O)O)C(OS(=O)(=O)O)C(OS(=O)(=O)O)C(OS(=O)(=O)O)C1OS(=O)(=O)O	-	NL4-3	MT-4	GP120-R302S	>250 µg/mL
O=C1/C(=C/c2ccc(O)c([N+](=O)[O-])c2)CNC/C1=C\c1ccc(O)c([N+](=O)[O-])c1	-	-	MT-4	-	>11 µM
Cc1cccc(Cc2nc(OC(C)C)[nH]c(=O)c2C)c1	-	IIIB	MT-4	-	>367 µM
NC1=Nc2c(ncn2CCC/C=C/P(=O)(O)O)C(=O)C1	-	RF	MT-4	-	56 µM
CCOC(=O)c1cn(Cc2ccccn2)c(Sc2cc(Cl)cc(Cl)c2)c1C(C)C	-	IIIB	MT-4	-	>200 µM
Cc1cn([C@H]2C[C@H](N=[N+]=[N-])[C@@H](CO)O2)c(=O)[nH]c1=O	-	RF	CEM + CEM-SS	-	0.004 µM
CC(C)(C)OC(=O)NCCC(=O)Nc1cccc(C(c2c(O)c3c(oc2=O)CCCCCC3)C2CC2)c1	-	IIIB	H9	-	57 µM
CCOC(=O)c1cn(Cc2ccncc2)c(Sc2cc(Cl)cc(Cl)c2)c1C1CCC1	-	IIIB	MT-4	-	0.3 µM
CC(C)(C)OC(=O)N[C@@H](Cc1ccccc1)C[C@H](O)[C@H](Cc1ccccc1)NC(=O)c1c(Cl)cccc1Cl	-	IIIB	MT-4	-	10 µM
O=S(=O)(c1cccc2ccccc12)N1CCSC1c1cccnc1	-	IIIB	MT-4	-	>1000 µM
CC(C)(C)NC(=O)[C@@H]1C[C@@H]2CCCC[C@@H]2CN1C[C@@H](OC(=O)C(CS)NC(=O)CCCCON)[C@H](Cc1ccccc1)NC(=O)[C@H](CC(N)=O)NC(=O)c1ccc2ccccc2n1	-	LAV/LAI	MT-2	-	0.9 µM
O=c1cc(Cc2c(F)cccc2F)nc(NC2CCCC2)[nH]1	-	IIIB	MT-4	-	0.2 µM
O=C1/C(=C/c2ccc([N+](=O)[O-])c(O)c2)CN(Cc2ccccc2)C/C1=C\c1ccc([N+](=O)[O-])c(O)c1	-	-	MT-4	-	>3.5 µM
C=C[C@]1(CO)O[C@@H](n2cc(C)c(=O)[nH]c2=O)C[C@@H]1O	-	LAI	MT-4	-	3.9 µM
CC(C)c1c(CO)cn(Cc2ccc([N+](=O)[O-])cc2)c1Sc1cc(Cl)cc(Cl)c1	-	IIIB	MT-4	-	0.15 µM
CC(c1cc(=O)[nH]c(SC2CCCC2)n1)c1c(F)cccc1F	-	-	MT-4	RT-Y181C	2.5 µM
NC1=Nc2c(ncn2CCCCC(F)(F)P(=O)(O)O)C(=O)C1	-	RF	MT-4	-	>500 µM
Cc1c(C(C)c2c(F)cccc2F)nc(NC(C)C)[nH]c1=O	-	IIIB	MT-4	-	0.005 µM
COc1ccc(Sc2nc(N)nc3c2ncn3CCOCP(=O)(OCC(F)(F)F)OCC(F)(F)F)cc1	-	IIIB	MT-4	-	>34 µM
O=C1/C(=C/c2cc(O)c(O)c(O)c2)CCC/C1=C\c1cc(O)c(O)c(O)c1	-	-	MT-4	-	>50 µM
CC(C)c1c(C(=O)c2ccccc2)cn(Cc2ccncc2)c1Sc1cc(Cl)cc(Cl)c1	-	IIIB	MT-4	-	12 µM
CN(C)c1cccc2c(S(=O)(=O)N3CCSC3c3cccnc3)cccc12	5 d	HE-NEV	MT-4	-	>2000 µM
Cc1ccnc2c1NC(=O)c1cccnc1N2C1CC1	-	Recombinant clinical isolates	MT-4	-	≤0.01 µM
CC(C)c1c(COC(N)=O)cn(Cc2ccncc2)c1Sc1cccc(Cl)c1	-	IIIB	MT-4	-	0.4 µM
Nc1ccn(CC2CN2CP(=O)(O)O)c(=O)n1	-	IIIB	MT-4	-	>100 µM
C#CC1(CO)O[C@@H](n2c(Cl)nc3c(=O)[nH]c(N)nc32)[C@H](O)[C@@H]1O	-	LAI	MT-4	-	>400 µM
Cc1cn([C@H]2C[C@H](N=[N+]=[N-])[C@@H](CO)O2)c(=O)[nH]c1=O	-	IIIB	MT-4	-	0.0014 µM
Nc1ccn([C@H]2CC[C@@H](CO)O2)c(=O)n1	-	IIIB	MT-4	-	0.0098 µM
CCCCCCCCCCc1ccc2c(c1)N(C)[C@@H](C(C)C)C(=O)NC(CO)C2	-	IIIB	MT-4	-	0.0125 µg/mL
Nc1ncnc2c1ncn2CC1CN1CP(=O)(O)O	-	IIIB	MT-4	-	>100 µM
NC(=O)OCc1cn(Cc2ccncc2)c(Sc2cc(Cl)cc(Cl)c2)c1C1CC1	-	IIIB	MT-4	-	0.65 µM
CC(C)(C)NC(=O)[C@@H]1C[C@@H]2CCCC[C@@H]2CN1C[C@@H](O)[C@H](Cc1ccccc1)NC(=O)[C@H](CC(N)=O)NC(=O)c1ccc2ccccc2n1	-	NL4-3	MT-4	-	0.02 µM
CCCCCCCCCCc1ccc2c(c1)N(C)C(C(C)C)C(=O)NC(CO)C2	-	IIIB	MT-4	-	0.32 µg/mL
Nc1ccn([C@H]2CO[C@@H](CO)O2)c(=O)n1	-	RF	MT-4	-	0.045 µg/mL
C#CC1(CO)O[C@@H](n2c(C)nc3c(N)ncnc32)[C@H](O)[C@@H]1O	-	LAI	MT-4	-	>400 µM
CC(C)(C)NC(=O)[C@@H]1CN(Cc2cccnc2)CCN1C[C@@H](O)C[C@@H](Cc1ccccc1)C(=O)N[C@H]1c2ccccc2C[C@H]1OC(=O)CCCCOc1ccc(C[C@H](N)C(=O)O)cc1	-	IIIB	MT-4	-	0.047 µM
CCC(C)Oc1nc(Cc2cc(C)cc(C)c2)c(C)c(=O)[nH]1	-	IIIB	MT-4	-	0.8 µM
CCCCCCCCCCc1ccc2c(c1)N(C)[C@@H](C(C)C)C(=O)N[C@@H](CO)C2	-	IIIB	MT-4	-	0.63 µg/mL
O=C1/C(=C/c2ccc(O)c([N+](=O)[O-])c2)CN(Cc2ccccc2)C/C1=C\c1ccc(O)c([N+](=O)[O-])c1	-	-	MT-4	-	>19 µM
CC(C)c1c(C(=O)O)cn(Cc2ccncc2)c1Sc1ccccc1	-	IIIB	MT-4	-	4.7 µM
CC(C)c1nc(COC(N)=O)n(Cc2ccncc2)c1S(=O)(=O)c1cc(Cl)cc(Cl)c1	-	-	MT-4	-	0.5 µg/mL
O=C1/C(=C/c2cc(O)c(O)c(O)c2)COC/C1=C\c1cc(O)c(O)c(O)c1	-	-	MT-4	-	34 µM
CC(C)(C)NC(=O)[C@@H]1CN(Cc2cccnc2)CCN1C[C@@H](O)C[C@@H](Cc1ccccc1)C(=O)N[C@H]1c2ccccc2C[C@H]1O	-	IIIB	MT-4	-	0.022 µM
CCOC(=O)CC1C/C(=C\c2ccc(O)c(O)c2)C(=O)/C(=C/c2ccc(O)c(O)c2)C1	-	-	MT-4	-	>5 µM
CN(C)c1cccc2c(S(=O)(=O)N3CCSC3c3ccncc3)cccc12	-	IIIB	MT-4	-	>5.56 µM
Cc1cc(C)cc(Cc2[nH]c(=O)[nH]c(=O)c2C)c1	-	IIIB	MT-4	-	38 µM
CCOC(=O)c1cn(Cc2ccncc2)c(Sc2ccc(C)cc2)c1C(C)C	-	IIIB	MT-4	-	>60 µM
CCCNc1nc(C(C)c2c(F)cccc2F)c(C)c(=O)[nH]1	-	IIIB	MT-4	-	0.006 µM
CCCCCCCCCCc1ccc2c(c1)N(C)[C@@H](C(C)C)C(=O)N[C@@H](CO)CC2	-	IIIB	MT-4	-	0.3 µg/mL
CNc1nc(C(C)c2c(F)cccc2F)c(C)c(=O)[nH]1	-	-	MT-4	RT-Y181C	13 µM
CCOCn1c(Cc2ccccc2)c(C(C)C)c(=O)[nH]c1=O	-	IIIB	MT-4	-	0.03 µM
Cc1cccc(Cc2nc(OCC(C)C)[nH]c(=O)c2C)c1	-	IIIB	MT-4	-	4.6 µM
OCc1cn(Cc2ccncc2)c(Sc2cc(Cl)cc(Cl)c2)c1C1CCC1	-	IIIB	MT-4	-	0.08 µM
CC(C)(C)NC(=O)[C@@H]1CN(Cc2cccnc2)CCN1C[C@@H](O)C[C@@H](Cc1ccccc1)C(=O)N[C@H]1c2ccccc2C[C@H]1OC(=O)CCCCO[C@@H]1[C@@H](O)[C@@H](O)O[C@H](CO)[C@H]1O	-	IIIB	MT-4	-	0.19 µM
CCC(C)Nc1nc(Cc2c(F)cccc2F)c(C)c(=O)[nH]1	-	-	MT-4	RT-Y181C	2.3 µM

A second listing of 6 rows from above:

smiles | conditions | strain | cell line | changes | value
CC(C)c1c(C(=O)O)cn(Cc2ccncc2)c1Sc1ccccc1 | - | IIIB | MT-4 | - | 4.7 µM
Cc1cn([C@H]2C[C@H](N=[N+]=[N-])[C@@H](CO)O2)c(=O)[nH]c1=O | - | IIIB | MT-4 | - | 0.0059–0.017 µM
O=S(=O)(c1cccc2ccccc12)N1CCSC1c1cccnc1 | - | IIIB | MT-4 | - | >1000 µM
Cc1c(C(C)c2c(F)cccc2F)nc(NC(C)C)[nH]c1=O | - | IIIB | MT-4 | - | 0.005 µM
NC(=O)OCc1cn(Cc2ccncc2)c(Sc2cc(Cl)cc(Cl)c2)c1C1CC1 | - | IIIB | MT-4 | - | 0.65 µM
CCOC(=O)CC1C/C(=C\c2ccc(O)c(O)c2)C(=O)/C(=C/c2ccc(O)c(O)c2)C1 | - | - | MT-4 | - | >5 µM